In patent publication WO2021105669A1, “Antibodies” (dated 2021):

Tests used:
Experiment in all cases: cell-based or functional assay
[1] = biological target: EBOV GP on S-FLU pseudotype virus (Zaire Ebola virus)
[2] = biological target: SUDV GP on S-FLU pseudotype virus (Sudan Ebola virus)
[3] = biological target: BDBV GP on S-FLU pseudotype virus (Bundibugyo Ebola virus)

Measured: neutralisation IC50 against that of CA45 in the same assay

B1: 11886 (antibody, V domains shown)
VH: QSVEESGGRLVTPGTPLTLTCIVSGFSLSNYYMSWVRQVPGKGLEWIGVIGWSGTSSYASWAKGRFTISKTASTTVDLKITSPTTEDTATYFCARVLYIGGGFNYYDAFDPWGPGTLVTVSS
VL: DVVMTQTPASVSEPVGGTVTIKCQASQSIGSNLAWYQQKPGQPPKLLIYAASTLASGVPSRFKGSGSGTEFTLTISDLECADAATYYCQCTYYDSSYVYNNFGGGTEVVVK
≤ 2.5 fold: [1] | [2] | [3]
